Taken from: PubChem BioAssay AID624099 (ICCB-Longwood, 2012)

Purpose: 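Host factors E2 relies on to silence an HPV18 LCR reporter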 (primary screen)
Cell system: human C33A cervical carcinoma cells (HPV-negative) stably expressing BPV1 E2 and an HPV18 LCR luciferase reporter
Knock-down reagent: siRNA pool against human genes, 40 nM
Duration: 72 h
Read-out: 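HPV18 LCR reporter light per well, converted to plate-wise z-scores that exclude control wells, and averaged over triplicate plates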
Scale: mean z-score and z-score: higher = stronger reporter signal, weaker E2 silencing
Rule for the call: 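Hit if mean z-score reaches 2 and two or more of three replicate z-scores also reach 2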
The deposit covers about 21,000 reagents; below is a part drawn at random. 497 of them (2.4%) count as active. 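Higher z means weaker E2 silencing; only reporter increases were scored, and knock-downs that hurt cell survival may mask genuine repressor factors.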

DLD (dihydrolipoamide dehydrogenase): mean z-score = 0; z-score, replicate A = 0.23; z-score, replicate B = 0.18; z-score, replicate C = -0.4; outcome = inactive
LOC343484 (retired record): mean z-score = 0.53; z-score, replicate A = 0.61; z-score, replicate B = 0.27; z-score, replicate C = 0.72; outcome = inactive
STK31 (serine/threonine kinase 31): mean z-score = -0.15; z-score, replicate A = -0.2; z-score, replicate B = -0.16; z-score, replicate C = -0.1; outcome = inactive
SLC20A1-DT (SLC20A1 divergent transcript): mean z-score = 1.12; z-score, replicate A = 1.54; z-score, replicate B = 0.74; z-score, replicate C = 1.06; outcome = inactive
TAAR6 (trace amine associated receptor 6): mean z-score = -0.2; z-score, replicate A = 0.06; z-score, replicate B = -0.49; z-score, replicate C = -0.18; outcome = inactive
BAGE (B melanoma antigen): mean z-score = 1.28; z-score, replicate A = 0.74; z-score, replicate B = 1.49; z-score, replicate C = 1.6; outcome = inactive
TENT5B (terminal nucleotidyltransferase 5B): mean z-score = -1.12; z-score, replicate A = -1.37; z-score, replicate B = -1.17; z-score, replicate C = -0.81; outcome = inactive
CDS2 (CDP-diacylglycerol synthase 2): mean z-score = -1.1; z-score, replicate A = -1.09; z-score, replicate B = -0.91; z-score, replicate C = -1.29; outcome = inactive
OR11H1 (olfactory receptor family 11 subfamily H member 1): mean z-score = -0.11; z-score, replicate A = -0.56; z-score, replicate B = 0.12; z-score, replicate C = 0.1; outcome = inactive
KLHL20 (kelch like family member 20): mean z-score = 0.51; z-score, replicate A = 0.6; z-score, replicate B = 0.47; z-score, replicate C = 0.46; outcome = inactive
AMH (anti-Mullerian hormone): mean z-score = 0.2; z-score, replicate A = 0.21; z-score, replicate B = 0.23; z-score, replicate C = 0.15; outcome = inactive
GCAT (glycine C-acetyltransferase): mean z-score = -1.3; z-score, replicate A = -1.25; z-score, replicate B = -1.23; z-score, replicate C = -1.43; outcome = inactive
NAPG (NSF attachment protein gamma): mean z-score = -0.49; z-score, replicate A = -0.67; z-score, replicate B = -0.35; z-score, replicate C = -0.45; outcome = inactive
ISCA1 (iron-sulfur cluster assembly 1): mean z-score = -0.73; z-score, replicate A = -0.72; z-score, replicate B = -0.92; z-score, replicate C = -0.53; outcome = inactive

Part of the list above, set out differently.
| gene | mean z-score | z-score, replicate A | z-score, replicate B | z-score, replicate C | outcome |
| --- | --- | --- | --- | --- | --- |
| DLD (dihydrolipoamide dehydrogenase) | 0 | 0.23 | 0.18 | -0.4 | inactive |
| LOC343484 (retired record) | 0.53 | 0.61 | 0.27 | 0.72 | inactive |
